Measurements reported in PubChem BioAssay AID624099 (ICCB-Longwood, 2012).
Aim: 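Host factors E2 relies on to silence an HPV18 LCR reporter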 (primary screen). Cells: human C33A cervical carcinoma cells (HPV-negative) stably expressing BPV1 E2 and an HPV18 LCR luciferase reporter. Reagents: siRNA pool against human genes, 40 nM. Timing: 72 h. Measured: 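Per-well luciferase luminescence, z-scored on each plate against the plate mean and SD with control wells left out, then averaged across three replicate plates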. Direction: mean z-score and z-score: higher = stronger reporter signal, weaker E2 silencing. Hit rule: 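Hit if mean z-score reaches 2 and two or more of three replicate z-scores also reach 2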.
The deposit covers about 21,000 reagents; shown is an unselected part. 497 of all reagents (2.4%) were called active. 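Higher z means weaker E2 silencing; only reporter increases were scored, and knock-downs that hurt cell survival may mask genuine repressor factors.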 Entries without a mark were called inactive.

gene | mean z-score | z-score, replicate A | z-score, replicate B | z-score, replicate C
MORC2-AS1 (GeneID 150291) | -0.13 | 0.01 | 0 | -0.39
CASR (GeneID 846) | 0.43 | 0.1 | 0.74 | 0.46
NUDT14 (GeneID 256281) | 0.24 | 0.51 | 0.14 | 0.07
UBA5 (GeneID 79876) | 0.65 | 1.06 | 0.86 | 0.02
DCAF6 (GeneID 55827) | 0.19 | 0.13 | 0.11 | 0.34
ANKRD39 (GeneID 51239) | -1.06 | -0.6 | -1.31 | -1.27
ZNF382 (GeneID 84911) | 0.15 | 0.01 | 0.15 | 0.3
FIMP1 (GeneID 146378) | 0.77 | 0.75 | 0.42 | 1.12
TMEM38A (GeneID 79041) | 0.84 | 0.47 | 1.22 | 0.83
TENT4B (GeneID 64282) | 1.83 | 2 | 1.96 | 1.54
DEFB123 (GeneID 245936) | -0.24 | 0 | -0.29 | -0.41
REEP6 (GeneID 92840) | 0.56 | 0.6 | 0.8 | 0.27
PLEKHO2 (GeneID 80301) | 0.92 | 1.04 | 1.1 | 0.63
HAND2 (GeneID 9464) | 0.97 | 1 | 0.79 | 1.11
CALCRL (GeneID 10203) | -0.22 | -0.39 | -0.1 | -0.19
MAK16 (GeneID 84549) | -1.37 | -1.24 | -1.46 | -1.42
LZTS2 (GeneID 84445) | -0.07 | -0.56 | 0.37 | -0.01
SNHG11 (GeneID 128439) | -0.12 | -0.24 | -0.02 | -0.1
CHD5 (GeneID 26038) | 0.57 | 0.53 | 0.58 | 0.59

5 entries already listed, ordered by “z-score, replicate A”, high to low.
gene | mean z-score | z-score, replicate A | z-score, replicate B | z-score, replicate C
PLEKHO2 (GeneID 80301) | 0.92 | 1.04 | 1.1 | 0.63
HAND2 (GeneID 9464) | 0.97 | 1 | 0.79 | 1.11
CALCRL (GeneID 10203) | -0.22 | -0.39 | -0.1 | -0.19
LZTS2 (GeneID 84445) | -0.07 | -0.56 | 0.37 | -0.01
MAK16 (GeneID 84549) | -1.37 | -1.24 | -1.46 | -1.42

The listing continues:
gene | mean z-score | z-score, replicate A | z-score, replicate B | z-score, replicate C
TASOR2 (GeneID 54906) | -0.03 | 0.34 | -0.15 | -0.28
SERF2 (GeneID 10169) | 1.1 | 1.42 | 1.2 | 0.67
NSF (GeneID 4905) | 0.29 | 0.23 | 0.17 | 0.48
FXN (GeneID 2395) | 0.75 | 0.49 | 0.97 | 0.79
LAMA5 (GeneID 3911) | -1.04 | -0.8 | -1.07 | -1.24
ATP8A2 (GeneID 51761) | -0.14 | -0.35 | -0.13 | 0.07
BCKDK (GeneID 10295) | 0.11 | 0.01 | 0.09 | 0.21
F11-AS1 (GeneID 285441) | 0.26 | 0.1 | 0.23 | 0.45
UBE4A (GeneID 9354) | -0.57 | -0.4 | -0.53 | -0.76
IFNA14 (GeneID 3448) | -1.78 | -1.79 | -1.77 | -1.79
MTFR2 (GeneID 113115) | 0.33 | 0.52 | 0.34 | 0.11
GABRA5 (GeneID 2558) | 0.65 | 0.63 | 0.4 | 0.91
CD24 (GeneID 100133941) | 0.42 | 0.59 | 0.22 | 0.45
PPP2R2C (GeneID 5522) | -1.83 | -1.8 | -1.87 | -1.81
LOC387942 (retired record) (GeneID 387942) | -0.58 | -0.66 | -0.47 | -0.6
OR2T3 (GeneID 343173) | -0.24 | -0.63 | -0.2 | 0.12
FUT5 (GeneID 2527) | -0.22 | -0.21 | 0.03 | -0.47
LOC400675 (retired record) (GeneID 400675) | 0.3 | 0.11 | 0.23 | 0.57
RMND1 (GeneID 55005) | 0.15 | 0.35 | 0.19 | -0.1
SIKE1 (GeneID 80143) | 0.14 | 0.33 | -0.15 | 0.25
CCDC138 (GeneID 165055) | 1.31 | 0.82 | 1.66 | 1.46
LGALSL (GeneID 29094) | 1.64 | 1.9 | 1.82 | 1.2
SIAH3 (GeneID 283514) | 1.18 | 1.2 | 1.19 | 1.16
BTN1A1 (GeneID 696) | 2.13 (active) | 2.11 | 1.99 | 2.29
TSPAN1 (GeneID 10103) | -1.87 | -2.07 | -1.69 | -1.85
HIKESHI (GeneID 51501) | -0.93 | -0.7 | -1.17 | -0.92
ATP6V0B (GeneID 533) | 0.62 | 0.57 | 0.72 | 0.57
LOC389199 (GeneID 389199) | -2.25 | -2.51 | -2.05 | -2.18
MPV17 (GeneID 4358) | -0.66 | -0.76 | -0.59 | -0.63
LOC401701 (retired record) (GeneID 401701) | -0.07 | 0.15 | -0.54 | 0.19
RGL1 (GeneID 23179) | -0.07 | -0.34 | 0 | 0.13
NEUROG2 (GeneID 63973) | -1.02 | -1.24 | -1.23 | -0.6
FRG1 (GeneID 2483) | -1.34 | -1.43 | -1.31 | -1.29
LOC401291 (retired record) (GeneID 401291) | -0.5 | -0.59 | -0.37 | -0.53
ZNF667-AS1 (GeneID 100128252) | -1.61 | -2.03 | -1.75 | -1.05
PDLIM5 (GeneID 10611) | 0.21 | 0.37 | 0.16 | 0.11
RRP8 (GeneID 23378) | -0.21 | -0.24 | -0.2 | -0.19
GRIN3A (GeneID 116443) | -1.47 | -1.39 | -1.6 | -1.42
